Measured values published in paper PMC8346205.

Tested on: NC(=O)CC[C@H](N)C(=O)O
Assay: purified protein
Conditions: Fe2+, alpha-ketoglutarate, O2; C4 hydroxylation

Q4Ox (Fusarium graminearum PH-1)
Km: 990 ± 30 µM | kcat: 4.17 ± 0.0433 s⁻¹
